Data set [1] concerns the target U2AF65 (endogenous, RNA ChIP) (UniProt P26368). Nature of the data set: binding assay. As to conditions: HEK 293T transfected, also infected MRC-5, protein in cells.
Data set [2] addresses PTB (endogenous, RNA ChIP) (UniProt P26599). Briefly: binding assay. As to conditions: HEK 293T transfected, also infected MRC-5, protein in cells.

The chains behind the UniProt entries cited, without tags or fusion partners. Where a name states a change or a piece, a line headed by the entry shows the natural chain unless it says otherwise. Residues count along the entry.
UniProt P26368, 2-475: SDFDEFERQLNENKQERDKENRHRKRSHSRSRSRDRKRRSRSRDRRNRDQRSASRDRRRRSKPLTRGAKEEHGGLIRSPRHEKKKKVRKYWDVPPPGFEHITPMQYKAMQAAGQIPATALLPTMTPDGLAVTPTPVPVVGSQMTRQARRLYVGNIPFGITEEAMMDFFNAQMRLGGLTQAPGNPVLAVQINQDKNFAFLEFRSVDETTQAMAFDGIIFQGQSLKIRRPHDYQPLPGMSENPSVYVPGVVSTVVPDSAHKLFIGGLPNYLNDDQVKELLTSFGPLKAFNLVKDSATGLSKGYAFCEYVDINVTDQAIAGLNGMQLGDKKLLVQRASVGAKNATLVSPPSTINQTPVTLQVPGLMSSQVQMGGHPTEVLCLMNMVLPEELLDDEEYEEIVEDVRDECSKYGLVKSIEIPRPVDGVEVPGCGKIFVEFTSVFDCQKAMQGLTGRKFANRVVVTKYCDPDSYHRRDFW
UniProt P26599: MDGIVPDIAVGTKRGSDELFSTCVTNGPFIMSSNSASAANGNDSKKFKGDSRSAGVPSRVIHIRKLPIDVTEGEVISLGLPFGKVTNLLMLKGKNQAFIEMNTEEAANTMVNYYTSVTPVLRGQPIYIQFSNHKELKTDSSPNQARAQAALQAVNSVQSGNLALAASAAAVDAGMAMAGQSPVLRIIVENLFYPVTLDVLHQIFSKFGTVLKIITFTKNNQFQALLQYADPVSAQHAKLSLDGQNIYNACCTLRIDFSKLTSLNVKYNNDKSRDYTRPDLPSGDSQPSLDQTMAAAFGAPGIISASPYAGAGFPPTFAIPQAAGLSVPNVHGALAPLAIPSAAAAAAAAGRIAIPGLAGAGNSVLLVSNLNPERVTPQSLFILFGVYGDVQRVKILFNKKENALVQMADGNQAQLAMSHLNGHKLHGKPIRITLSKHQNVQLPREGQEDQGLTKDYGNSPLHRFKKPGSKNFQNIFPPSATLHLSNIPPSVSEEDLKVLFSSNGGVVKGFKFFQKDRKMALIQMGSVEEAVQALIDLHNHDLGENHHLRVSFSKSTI

The exact form of at least one protein or probe is not confirmed. Results from cells or extracts need not show a direct contact.

Turning to “CACGCCUGUGAAACCGUACUAAGUCUCCCGUGUCUUCUUAUCACCAUCAG [MIE intron 4 RNA in cells (pSVH)]”, the binding result in data set [1] and in data set [2] was “binds” throughout.

Source of the values: patent publication US20240263180.
